A mixed list of measured activities; the numbers were collected in NIAID ChemDB.

Shared fields: whole-cell or culture tests; organism: HIV-1; read by: cytopathic effect / MTT; read-out: EC50

ECn: concentration that inhibits the pathogen or its effect by n%.

O=c1[nH]c2c(c(=O)[nH]1)CCCC2 ; cells: CEM-C113 + CEM/C113 ; strain or isolate: BRU ; result: >30 µg/mL
CSCSc1nc(Cc2c(F)cccc2F)c(C)c(=O)[nH]1 ; cells: MT-4 ; mutations: RT-K103N Y181C ; strain or isolate: IIIB ; result: >100 µM
N#C[C@]1(CO)O[C@@H](n2cnc3c(=O)[nH]c(N)nc32)C[C@@H]1O ; strain or isolate: LAI ; result: <0.03 µM
CCOC(=O)c1cn(CC(O)CSc2ccccc2C(=O)NC(C)(C)C)cc1-c1ccccc1 ; cells: MT-4 ; strain or isolate: IIIB ; result: >94 µM
CC1(C)OS(=O)(=O)C=C1NCCc1ccccc1 ; cells: MT-4 ; strain or isolate: IIIB ; result: >125 µg/mL
CCOCn1c(Cc2ccccc2)c(C(C)C)c(=O)[nH]c1=O ; cells: MT-4 ; mutations: RT-Y181C ; strain or isolate: IIIB ; result: 44 µM
O=C1CNS(=O)(=O)c2cc(Cl)ccc2N1 ; cells: MT-4 ; result: >200 µM
CCc1c(Cc2cccc3ccccc23)n2c(nc1=O)SCC2OC ; cells: MT-4 ; strain or isolate: IIIB ; result: >100 µM
CCOC(=O)c1nc(-c2ccc(N3C(=O)C=CC4C3c3ccccc3N4C)cc2)no1 ; cells: MT-4 ; strain or isolate: LAI ; result: >32 µM
CC(C)c1c(Cc2ccccc2)nc(SCC2OCCO2)[nH]c1=O ; cells: MT-4 ; strain or isolate: IIIB ; result: >100 µM
CC(C)=CCOc1cc(Nc2nccs2)ccc1C(=O)O ; cells: MT-2 ; strain or isolate: IIIB ; result: >17 µM
C=C(c1cc(C)cc(C)c1)c1c(CC)c(=O)[nH]c(=O)n1COCC=C(C)C ; cells: MT-4 ; strain or isolate: IIIB ; result: 0.15 µM
CSc1nc(=O)n(COCCO)c2c1CCC2 ; cells: CEM-C113 + CEM/C113 ; strain or isolate: BRU ; result: >30 µg/mL
CCOC(=O)CN(CC)S(=O)(=O)c1cc(Cl)ccc1N ; cells: MT-4 ; result: >200 µM
CN(C)c1nc(N)nc2c1ncn2CCOCP(=O)(O)O ; cells: CEM ; strain or isolate: IIIB ; result: 0.7 µg/mL
Cc1cn([C@H]2C=C[C@@H](CO)O2)c(=O)[nH]c1=O ; cells: MT-4 ; strain or isolate: RD 22-RT-K65R M202I Recombinant ; result: 0.28 µM
CCOC(=O)c1cn(CC(O)CNc2cccc(N)c2)cc1-c1ccccc1 ; cells: MT-4 ; strain or isolate: IIIB ; result: >4.3 µM
C[C@H](C[n+]1c[nH]c2c(Nc3ccccc3)nc(N)nc21)OCP(=O)(O)O ; cells: CEM ; strain or isolate: IIIB ; result: 11 ± 6 µg/mL
CCc1c(Cc2ccccc2)n2c(nc1=O)SCC2CBr ; cells: MT-4 ; strain or isolate: IIIB ; result: >100 µM
CCN1C(C)Cn2c(=O)[nH]c3cc(Cl)cc(c32)S1(=O)=O ; cells: MT-4 ; result: >130 µM
CCOC(=O)c1cn(CC(O)CNc2ccc(C)cc2)cc1-c1ccccc1 ; cells: MT-4 ; strain or isolate: IIIB ; result: >200 µM
C[C@H](CC1CNC2C1CC(N)CN2N)OCP(=O)(O)O ; cells: CEM ; strain or isolate: IIIB ; result: >100 µg/mL
CC(C)=CCOc1cc(Nc2nccs2)ccc1C(C)C ; cells: MT-2 ; strain or isolate: IIIB ; result: >31 µM
CCOCn1c(C(=O)C2=CCCCC2)c(CC)c(=O)[nH]c1=O ; cells: MT-4 ; strain or isolate: RT-Y181C N119 ; result: >100 µM
CC1(C)C(N)=CS(=O)(=O)N1Cc1ccccc1 ; cells: MT-4 ; strain or isolate: IIIB ; result: >125 µg/mL
Cc1cc(C)cc(Sc2c([N+](=O)[O-])c(=O)[nH]c3ccccc23)c1 ; cells: CEM + CEM-SS ; mutations: RT-Y181C ; strain or isolate: N119(RT-Y181C) ; result: 6.7 µM
O=c1[nH]c(=O)n(COCc2ccccc2)c2c1CCCC2 ; cells: CEM-C113 + CEM/C113 ; strain or isolate: BRU ; result: >30 µg/mL
CC1Cn2c(=O)[nH]c3cc(Cl)cc(c32)S(=O)(=O)N1 ; cells: MT-4 ; result: >200 µM
CC=CC(O)c1c(CC)c(=O)[nH]c(=O)n1COCC ; cells: MT-4 ; strain or isolate: IIIB WT ; result: >100 µM
CC1C(=S)Nc2ccc(Cl)cc2S(=O)(=O)N1Cc1c(F)cccc1F ; cells: MT-4 ; result: 9 µM
N#Cc1cc2[nH]c3ccccc3c2n(-c2ccc([N+](=O)[O-])cc2)c1=O ; cells: MT-4 ; mutations: RT-K103N ; strain or isolate: B ; result: 1.26 µM
[N-]=[N+]=NCCOCn1c2c(c(=O)[nH]c1=O)CCCC2 ; cells: CEM-C113 + CEM/C113 ; strain or isolate: BRU ; result: >30 µg/mL
CCOC(=O)c1cn(CC(O)CNc2cccc(Cl)c2)cc1-c1ccccc1 ; cells: MT-4 ; strain or isolate: IIIB ; result: >42.7 µM
O=C(OCC1CC1)c1cccn1S(=O)(=O)c1cc(Cl)ccc1[N+](=O)[O-] ; cells: MT-4 ; strain or isolate: IIIB ; result: >96 µM
COCc1ccnc(Nc2ccc(Cl)c(OCC=C(C)C)c2)n1 ; cells: MT-2 ; strain or isolate: IIIB ; result: >25 µM
O=c1[nH]c(=O)n(COCc2ccccc2)c2c1CCC2 ; cells: CEM-C113 + CEM/C113 ; strain or isolate: BRU ; result: >30 µg/mL
C=CCOCn1c(C(=C)c2ccccc2)c(CC)c(=O)[nH]c1=O ; cells: MT-4 ; strain or isolate: IIIB ; result: 0.87 µM
CC1(C)C(N)=C(c2ccccc2)S(=O)(=O)N1Cc1ccccc1 ; cells: MT-4 ; strain or isolate: IIIB ; result: >125 µg/mL
NCCCCCCNC(=O)Cc1cn([C@@H]2C=C[C@H](CO)O2)c(=O)[nH]c1=O ; cells: CEM + CEM-SS ; strain or isolate: LAI ; result: >10 µM
Cc1cc(C)cc(S(=O)(=O)c2c(C(N)=O)[nH]c3c(Cl)cc(Cl)cc23)c1 ; cells: MT-4 ; mutations: RT-Y181C ; result: >100 µM
Cc1cc(C)cc(S(=O)(=O)c2c(C(=O)NCC(=O)NC(C)C(=O)NN)[nH]c3ccc(Cl)cc23)c1 ; cells: MT-4 ; strain or isolate: Nevirapine resistant (RT K103N Y181C) ; result: 3.5 µM
CC(=O)c1ccccc1N[C@H](C(N)=O)c1c(Cl)cccc1Cl ; cells: MT-4 ; strain or isolate: IIIB ; result: 0.02 µM
Cc1cc(C)cc(Sc2c(N)c(=O)[nH]c3ccccc23)c1 ; cells: CEM + CEM-SS ; mutations: RT-Y181C ; strain or isolate: N119(RT-Y181C) ; result: 2.2 µM
CC=CC(=O)c1c(CC)c(=O)[nH]c(=O)n1COCC ; cells: MT-4 ; strain or isolate: RT-Y181C N119 ; result: >100 µM
CCOC(=O)c1cccn1S(=O)(=O)c1cc(Cl)ccc1Cl ; cells: MT-4 ; strain or isolate: IIIB ; result: 7.6 µM
O=c1[nH]c(=S)c2c(n1COCCO)CCC2 ; cells: CEM-C113 + CEM/C113 ; strain or isolate: BRU ; result: >30 µg/mL
CCOC(=O)C(C)N(CC=C(C)C)S(=O)(=O)c1cc(Cl)ccc1N ; cells: MT-4 ; result: 2 µM
COC(=O)[C@H](C)NP(=O)(OC[C@@H]1C=C[C@H](n2cc(C)c(=O)[nH]c2=O)O1)Oc1ccccc1 ; cells: MT-4 ; strain or isolate: IIIB ; result: 0.066 µM
COC(=O)c1ccccc1NCC(O)Cn1c(C(=O)NC(C)(C)C)cc2cc(Cl)ccc21 ; cells: MT-4 ; strain or isolate: IIIB ; result: >112 µM
CCc1c(Cc2ccccc2)n2c(nc1=O)SCC2OCCO ; cells: MT-4 ; strain or isolate: IIIB ; result: >100 µM
CCOC(=O)c1ccccc1SCC(O)Cn1cc(C(=O)OCC)c(-c2ccccc2)c1 ; cells: MT-4 ; strain or isolate: IIIB ; result: >50 µM
NCCCCCCCCCCNC(=O)Cc1cn([C@@H]2C=C[C@H](CO)O2)c(=O)[nH]c1=O ; cells: CEM + CEM-SS ; strain or isolate: LAI ; result: 33 µM
CCc1c(Cc2ccccc2)nc2n(c1=O)C(OCCO)CS2 ; cells: MT-4 ; strain or isolate: IIIB ; result: >100 µM
Cc1cc(C)cc(Sc2c(C)c[nH]c(=O)c2N)c1 ; cells: CEM + CEM-SS ; mutations: RT-Y181C ; strain or isolate: N119(RT-Y181C) ; result: 2.1 µM
NCCCCCCNC(=O)Cc1cn([C@H]2C=C[C@@H](CO)O2)c(=O)[nH]c1=O ; cells: CEM + CEM-SS ; strain or isolate: IIIB ; result: >100 µM
Nc1nc(N2CCCC2)c2ncn(CCOCP(=O)(O)O)c2n1 ; cells: MT-4 ; strain or isolate: IIIB ; result: 1.88 µg/mL
CN(Cc1ccccc1)C(=O)c1cccn1S(=O)(=O)c1cc(Cl)ccc1N ; cells: MT-4 ; strain or isolate: IIIB ; result: >87 µM
N#C[C@]1(CO)O[C@@H](n2cnc3c(N)ncnc32)C[C@@H]1O ; strain or isolate: LAI ; result: 0.137 µM
CCc1c(C)[nH]c(=O)c(N)c1Sc1cc(C)cc(C)c1 ; cells: CEM + CEM-SS ; mutations: RT-Y181C ; strain or isolate: N119(RT-Y181C) ; result: 6.6 µM
CCN(CC)C(=O)c1cccn1S(=O)(=O)c1cc(Cl)ccc1[N+](=O)[O-] ; cells: MT-4 ; strain or isolate: IIIB ; result: >13 µM
CSCSc1nc(Cc2c(F)cccc2F)cc(=O)[nH]1 ; cells: MT-4 ; mutations: RT-Y181C ; strain or isolate: IIIB ; result: 54 µM
CCOC(=O)c1cccn1CC(O)CNc1ccccc1 ; cells: MT-4 ; strain or isolate: IIIB ; result: >200 µM
CCc1c(Cc2cccc3ccccc23)n2c(nc1=O)SCC2OCCO ; cells: MT-4 ; strain or isolate: IIIB ; result: >100 µM
C=CCOCn1c(C(=C)c2cc(C)cc(C)c2)c(CC)c(=O)[nH]c1=O ; cells: MT-4 ; mutations: RT-Y181C ; strain or isolate: IIIB ; result: >100 µM
O=S(=O)(O)OCC1OC2OC3C(COS(=O)(=O)O)OC(OC4C(COS(=O)(=O)O)OC(OC5C(COS(=O)(=O)O)OC(OC6C(COS(=O)(=O)O)OC(OC7C(COS(=O)(=O)O)OC(OC8C(COS(=O)(=O)O)OC(OC9C(COS(=O)(=O)O)OC(OC1C(OS(=O)(=O)O)C2OS(=O)(=O)O)C(OS(=O)(=O)O)C9OS(=O)(=O)O)C(OS(=O)(=O)O)C8OS(=O)(=O)O)C(OS(=O)(=O)O)C7OS(=O)(=O)O)C(OS(=O)(=O)O)C6OS(=O)(=O)O)C(OS(=O)(=O)O)C5OS(=O)(=O)O)C(OS(=O)(=O)O)C4OS(=O)(=O)O)C(OS(=O)(=O)O)C3OS(=O)(=O)O ; cells: MT-4 ; strain or isolate: IIIB ; result: 0.2 µg/mL
CCOC1CSc2nc(Cc3ccccc3)c(CC)c(=O)n21 ; cells: MT-4 ; strain or isolate: IIIB ; result: >100 µM
C=C(c1cc(C)cc(C)c1)c1c(CC)c(=O)[nH]c(=O)n1COC/C(C)=C/c1ccccc1 ; cells: MT-4 ; strain or isolate: IIIB ; result: 0.03 µM
Nc1nc(NC2CC2)c2ncn(CCOCP(=O)(O)O)c2n1 ; cells: CEM ; strain or isolate: IIIB ; result: 0.16 µg/mL
C#CCOCn1c(C(=C)c2cc(C)cc(C)c2)c(CC)c(=O)[nH]c1=O ; cells: MT-4 ; mutations: RT-Y181C ; strain or isolate: IIIB ; result: 17 µM
O=P(O)(O)OP(=O)(O)OP(=O)(O)OP(=O)(O)O ; cells: CEM ; strain or isolate: IIIB ; result: >100 µg/mL
CCOC(=O)c1cn(CC(O)CNc2ccccc2N)cc1-c1ccccc1 ; cells: MT-4 ; strain or isolate: IIIB ; result: >0.8 µM
CN1c2ccccc2C2C1C=C(c1noc(C(F)(F)F)n1)C(=O)N2c1ccc([N+](=O)[O-])cc1 ; cells: MT-4 ; strain or isolate: LAI ; result: <1 µM
O=c1[nH]c2c(c(=O)[nH]1)CCC2 ; cells: CEM-C113 + CEM/C113 ; strain or isolate: BRU ; result: >30 µg/mL
CC(=O)OCC1=C[C@@H]2C(=O)[C@]3(C=C(C)[C@H](OC(C)=O)[C@@]3(O)[C@@H]1OC(C)=O)[C@H](C)C[C@@H]1[C@H]2C1(C)C ; cells: MT-4 ; strain or isolate: IIIB ; result: 0.1 µM
CC(=O)c1ccc(C)cc1NC(C(N)=O)c1c(Cl)cccc1Cl ; cells: MT-4 ; strain or isolate: RF ; result: 0.015 µM
N#CC1=CC2C(c3ccccc3N2CCN2CCOCC2)N(c2ccc([N+](=O)[O-])cc2)C1=O ; cells: MT-4 ; strain or isolate: LAI ; result: <1 µM
C=C(c1cc(C)cc(C)c1)c1c(CC)c(=O)[nH]c(=O)n1COC/C=C/c1ccccc1 ; cells: MT-4 ; mutations: RT-K103N Y181C ; strain or isolate: IIIB ; result: >100 µM

Repeating the final 5 entries:

{"SMILES": "O=c1[nH]c2c(c(=O)[nH]1)CCC2", "cells": "CEM-C113 + CEM/C113", "strain or isolate": "BRU", "result": ">30 µg/mL"}
{"SMILES": "CC(=O)OCC1=C[C@@H]2C(=O)[C@]3(C=C(C)[C@H](OC(C)=O)[C@@]3(O)[C@@H]1OC(C)=O)[C@H](C)C[C@@H]1[C@H]2C1(C)C", "cells": "MT-4", "strain or isolate": "IIIB", "result": "0.1 µM"}
{"SMILES": "CC(=O)c1ccc(C)cc1NC(C(N)=O)c1c(Cl)cccc1Cl", "cells": "MT-4", "strain or isolate": "RF", "result": "0.015 µM"}
{"SMILES": "N#CC1=CC2C(c3ccccc3N2CCN2CCOCC2)N(c2ccc([N+](=O)[O-])cc2)C1=O", "cells": "MT-4", "strain or isolate": "LAI", "result": "<1 µM"}
{"SMILES": "C=C(c1cc(C)cc(C)c1)c1c(CC)c(=O)[nH]c(=O)n1COC/C=C/c1ccccc1", "cells": "MT-4", "mutations": "RT-K103N Y181C", "strain or isolate": "IIIB", "result": ">100 µM"}

Rows are shuffled and stem from different studies.